Measurements reported in PubChem BioAssay AID504761 (Drosophila RNAi Screening Center, 2011)
Aim: 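Insect host genes that dengue virus relies on to spread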 (primary screen). Cell system: D.Mel-2 cells from Drosophila. Reagent: long dsRNA against Drosophila genes. Challenge: infection with dengue virus type 2; dose and infection time not stated. Read-out: 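Per well on two replicate plates, imaging gave the percent of cells positive for viral envelope protein, ranked by infection, and a nuclear count of cells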. Direction: infection score: higher = more virus-infected cells. Rule for the call: 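Low infection ranks in the two replicates (chance level up to 0.065) followed by a retest with a 1.5-fold or larger significant decrease, p below 0.05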. Calls: active = confirmed: knock-down lowers infection; inactive = not picked or not confirmed.
The deposit covers about 22,000 reagents; this is a random part of those with a known target gene and a result. Of all reagents, 116 (0.52%) are marked active. 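Calls depend on retest data that are not deposited; infection was ranked per plate without normalising between plates; the unit of the infection score is not given.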 Names joined by + are all predicted targets of the reagent. Not all columns of the deposit are shown. The record does not give: the amount of reagent, the time to read-out.

target gene,dsRNA,"infection score, replicate 1","infection score, replicate 2",Call
Abcd3 (ATP binding cassette subfamily D member 3),DRSC19488,8.77,2.67,inactive
Abcd3 (ATP binding cassette subfamily D member 3),DRSC29341,18.9,4.84,inactive
CG31819,DRSC01532,2.19,1.19,inactive
CG31819,DRSC27735,27.7,26.9,inactive
CG31687 + Cdc23,DRSC23052,5.85,13.2,inactive
Reck (Reversion-inducing-cysteine-rich protein with kazal motifs),DRSC10504,8.86,13.6,inactive
Reck (Reversion-inducing-cysteine-rich protein with kazal motifs),DRSC10505,2.53,1.69,inactive
CG42337,DRSC11686,11.4,11.2,inactive
CG42337,DRSC23099,1.29,5.19,inactive
CG42337,DRSC27038,5.97,4.19,inactive
CG31948,DRSC00740,3.77,3.34,inactive
CG9021,DRSC03128,3.02,5.4,inactive
CG6951,DRSC10755,12.5,15.6,inactive
CG11145,DRSC06049,9.68,6.78,inactive
dao (down and out),DRSC01960,0.85,3.38,inactive
dao (down and out),DRSC26014,6.81,6.94,inactive
CG5388,DRSC15789,2.37,5.73,inactive
CG14630,DRSC18166,3.17,1.12,inactive
CG14630,DRSC18653,1.35,2.24,inactive
Ref2 (RNA and export factor binding protein 2),DRSC02563,6.06,2.23,inactive
CG32102,DRSC22015,3.43,4.94,inactive
CG10357,DRSC08155,1.02,2.67,inactive
CG4115,DRSC15545,14.1,1.95,inactive
